# PubChem BioAssay AID1259414, Drosophila RNAi Screening Center | 2018
# Purpose: 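Genome-wide screen for host control of endosymbiont load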 (primary screen)
# System: Drosophila JW18 cells infected with Wolbachia
# Reagent: long dsRNA against Drosophila genes, 0.25 µg dsRNA per well of a 384-well plate
# Timing: 5 days
# Conditions: cells persistently infected with Wolbachia before knock-down; no added drug
# Detection: 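Imaged fluorescence in situ signal for Wolbachia 23S rRNA per DAPI-counted host cell, given as a robust z-score within each plate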
# Reading the numbers: Wolbachia per cell robust z: higher = more Wolbachia per host cell than the plate typical
# Hit rule: 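Hit when robust z is 1.5 or more, or -1.5 or less, in at least two of three replicates; excludes dsRNAs with several or no targets, genes not expressed in JW18 and well A1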
# The deposit covers about 24,000 reagents; below is a random part of those that have a named target and a result. Of all reagents, about 1,210 (5%) are marked active. 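Inactive calls also include excluded dsRNAs with several or no targets, genes unexpressed in JW18, and well A1, regardless of score.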 A plus sign joins genes that one reagent is predicted to hit.
The first 5 entries, ahead of the listing:
gene knocked down,PubChem SID,"Wolbachia per cell robust z, rep 1","Wolbachia per cell robust z, rep 2","Wolbachia per cell robust z, rep 3",Outcome
eIF4E7,SID104197574,-0.0307,-0.411,-1.03,inactive
eIF4E7,SID104198415,-0.203,0.554,0.585,inactive
mt:ND2,SID104201066,-0.179,-0.676,-0.604,inactive
mt:ND2,SID104219065,0.48,-0.746,1.2,inactive
CG15649,SID104184032,-0.827,0.216,-0.903,inactive

The listing, from the first entry:
gene knocked down,PubChem SID,"Wolbachia per cell robust z, rep 1","Wolbachia per cell robust z, rep 2","Wolbachia per cell robust z, rep 3",Outcome
eIF4E7,SID104197574,-0.0307,-0.411,-1.03,inactive
eIF4E7,SID104198415,-0.203,0.554,0.585,inactive
mt:ND2,SID104201066,-0.179,-0.676,-0.604,inactive
mt:ND2,SID104219065,0.48,-0.746,1.2,inactive
CG15649,SID104184032,-0.827,0.216,-0.903,inactive
CG15649,SID104208170,-0.185,-1.3,-0.37,inactive
CG3632,SID104199663,-1.91,-10.1,0.516,active
Nrx-1,SID104195976,-0.147,1.1,-0.0922,inactive
CG6083,SID104190372,-0.0626,-0.396,1.17,inactive
CG6083,SID104203279,0.876,0.0897,-2.36,inactive
CG5381,SID104182644,0.923,-2.26,-4.99,active
CG34425,SID104192002,1.06,0.999,0.0328,inactive
CG34425,SID104201819,-1.14,-0.149,-1.08,inactive
FIG4,SID104180307,0.271,-5.16,0.842,inactive
CkIIalpha-i3,SID104188443,0.198,0.64,-0.343,inactive
msi,SID104196795,0.0366,0.315,0.185,inactive
CG13049,SID104189722,1.05,0.835,-1.62,inactive
CG13049,SID104203435,-0.393,-0.116,0.293,inactive
CG33640,SID104216491,-0.0899,-0.943,-0.228,inactive
CG11384,SID104198420,-0.0175,-0.501,-0.085,inactive
Lgr3,SID104195496,0.534,-0.0821,-0.114,inactive
Lgr3,SID104195498,-0.0222,-0.0914,1.18,inactive
Apc,SID104193906,0.297,-2.34,-0.441,inactive
CG8545,SID104187002,0.244,0.972,-0.415,inactive
LysB + LysC + LysD,SID104201041,0.6,0.48,-0.161,inactive
Gbs-76A,SID104190873,-0.283,-0.128,0.328,inactive
Lsd-2,SID104199935,-0.372,0.166,0.455,inactive
Lsd-2,SID104207445,-1.85,-2.53,-1.19,active
Cyfip,SID104195471,1.37,1.28,0.826,inactive
lectin-24Db,SID104180345,0.496,-0.221,-1.68,inactive
CG6729,SID104182776,-1.93,1.2,0.255,inactive
CG6729,SID104202152,0.477,-2.61,-0.767,inactive
CG6729,SID104208505,0.81,0.913,-3.29,inactive
Rac2,SID104191054,2.41,1.28,2.2,active
Rac2,SID104203632,0.506,0.33,1.07,inactive
Csas,SID104201869,-4.08,-4.53,-2.09,inactive
Sec61alpha,SID104183048,0.0128,0.38,1.47,inactive
hmw,SID104196069,0.296,-0.00739,0.718,inactive
AttC,SID104186678,-0.465,-4.54,-0.977,inactive
AttC,SID104204997,-0.676,0.572,-1.05,inactive
mbm,SID104180111,1.13,1.66,0.646,inactive
mmm,SID104190000,1.22,0.469,-1.74,inactive
Dbp45A,SID104187187,1.73,-0.000148,0.621,inactive
Hsp70Bbb + Hsp70Bc + Hsp70Bb + 1 more,SID104201039,-2.57,0.908,0.882,inactive
Lk6,SID104192659,-2.12,0.0764,0.147,inactive
Lk6,SID104196520,0.0906,-0.514,-1.07,inactive
Lk6,SID104202999,-2.01,-0.182,-2.14,active
scrt,SID104202358,0.189,0.872,-0.845,inactive
scrt,SID104204336,-2.19,-0.528,0.0923,inactive
Osi11,SID104192074,-0.533,0.926,-0.343,inactive
COX6CL,SID104180687,0.779,0.659,0.355,inactive
mus304,SID104191164,1.16,1.81,0.155,inactive
CG9686,SID104198231,-1.18,-1.7,-0.433,inactive
CG9686,SID104207041,0.731,0.371,-0.13,inactive
Hacd1,SID104182780,-0.979,-2.41,-0.558,inactive
Mat1,SID104187257,0.472,-1.56,1.1,inactive
Mat1,SID104204499,0.0744,0.582,-0.029,inactive
CG16711,SID104190012,-3.05,-0.0882,-0.408,inactive
CG16711,SID104202867,0.236,-0.694,-10.1,inactive
CG12935 + Nop10,SID104186817,-0.407,-5.2,0.81,inactive
Cda4,SID104200415,-1.17,-1.05,-0.285,inactive
Cda4,SID104200433,0.584,0.0446,0.662,inactive
Cda4,SID104200434,0.629,0.746,0.497,inactive
CG15642,SID104199470,0.779,1.01,-4.89,inactive
CG15642,SID104207576,1.27,0.774,0.98,inactive
ValRS-m,SID104190327,-0.675,0.139,1.09,inactive
Dop2R,SID104200475,0.526,0.00627,-0.173,inactive
Dop2R,SID104207830,0.487,1.31,0.855,inactive
